Results reported in US4818687A (priority 1985, dated 1989).

What was measured:
[1] = system: IgM antibody for AFB1; experiment: Competitive RIA with 3H-AFB1 tracer: specificity of the IgM antibody (FIGS. 1 and 2); settings: for 50% inhibition value: competitive RIA, 3H-AFB1 tracer, FIG. 2, AFB1 and aflatoxin-DNA adducts
[2] = system: anti-AFB1 IgM antibody immobilized upon Sepharose 4B; experiment: Release of 3H-AFB1 with increasing concentrations of DMSO (Table III); settings: for suitability as releasing agent: concentration of at least 50%
[3] = system: many animal species; settings: cited from earlier work
[4] = system: anti-AFB1 IgM antibody immobilized upon Sepharose 4B; experiment: Re-use of the affinity column with a second 3H-AFB1 tracer aliquot (Table II)
[5] = system: anti-AFB1 IgM antibody immobilized upon Sepharose 4B; experiment: Release of 3H-AFB1 tracer from anti-AFB1 IgM antibody affinity column by different eluants (Table I)

COc1cc2c(c3oc(=O)c4c(c13)CCC4=O)C1C(O2)OC(n2cnc3nc(N)[nH]c(=O)c32)C1O (stereo not drawn) showed a 50% inhibition value [1] of 89.0 pmol.

For COc1cc2c(c3oc(=O)c4c(c13)CCC4=O)[C@@H]1C=CO[C@@H]1O2 [aflatoxin B1], the “rate or quantity of AFB1 released from the affinity matrix” value ([2]; concentrations of DMSO greater than 50%) is given as “did not measurably increase the rate or quantity of AFB1 released”, the toxicity in animals [3] is given as “toxic, mutagenic and carcinogenic in many animal species” and the 50% inhibition value [1] is given as 3.0 pmol.

For COc1cc2c(c3oc(=O)c4c(c13)CCC4=O)C1C(O2)OC(N(C=O)c2c(N)nc(N)[nH]c2=O)C1O (stereo not drawn), the 50% inhibition value [1] was 24.0 pmol and the “times more sensitive in detecting the AF-FAPyr adduct than the AF-N7-Gua adduct” value ([1]; ratio from 50% inhibition values) was “approximately four”.

In the case of ^3 H-aflatoxin B1, the “% of Original” value ([4]; fraction 8, PBS) is reported as ~ 10%, the “% of Original” value ([4]; fraction 9, 50% DMSO) is reported as ~ 60% and the “AFB1 tracer released by the DMSO” value ([4]; fraction 9, second tracer aliquot) is reported as “about 60%”. For the same molecule, the “% of Original” value ([4]; fraction 10, 1st PBS wash) was ~ 30%, the “% of Original” value ([4]; fraction 11, 2nd PBS wash) was ~ 0% and the “tracer not retained by the affinity matrix” value ([4]; second tracer aliquot, approximately 24,486 cpm) was “approximately 10%”. For the same molecule, the “release of 3H-AFB1 from the affinity matrix” value ([2]; prior to using a 50% solution of DMSO) was “no substantial release”, the “AFB1 tracer released from the affinity matrix” value ([5]; 50% DMSO) was 90% and the “original tracer not adsorbed by the affinity matrix” value ([5]; effluent fraction No. 1) was “about 10%”. The “release of tracer AFB1 by the IgM antibodies of the matrix” value ([5]; effluent fractions 2-6) was “no substantial release”.

In the case of CN(C)C=O, the “suitability as releasing agent” value [2] is reported as “suitable for use in this methodology”.

With CC(=O)N(C)C the “suitability as releasing agent” value [2] was “suitable for use in this methodology”.
